From PubChem BioAssay AID1626 (SRMLSC, 2009) come the findings set out here.

This experiment has as its system M. tuberculosis H37Rv growth inhibition. Put plainly: M. tuberculosis H37Rv growth inhibitors, H37Rv strain (AID 1626). The settings on record: for IC90: measured here: IC90 against H37Rv; for CC50: measured here: Vero cell cytotoxicity.

Usually IC90 stands for the concentration needed for an effect of 90%. A lower IC90 goes with an effect from little substance. The CC50 is the concentration at which the toxic effect on the cells reaches its halfway point. A higher CC50 goes with lower toxicity to the cells. In general, IC50 refers to the point on the concentration scale where inhibition reaches its midpoint.

`Cc1ccc(NCCc2c([N+](=O)[O-])cc([N+](=O)[O-])cc2[N+](=O)[O-])cc1` displayed an IC90 of 3.46 µM and a CC50 of 29.3 µM.

As to `O=[N+]([O-])c1cc([N+](=O)[O-])c(-c2ccn[nH]2)s1`, the concentration for an effect of 90% (IC90) came out at 3.26 µM and the half-maximal cytotoxic concentration (CC50) was 38.9 µM.

`C[N+]1=C2C=CC=CC=C2SC12C([N+](=O)[O-])=CC([N+](=O)[O-])=C[C-]2[N+](=O)[O-]` (configuration not stated): the half-maximal inhibitory concentration (IC50) was 16.8 µM, the IC90 is more than 100 µM and the cytotoxic concentration (CC50) came out at 18.7 µM.
